Pooled drug test results. Numbers come from NIAID ChemDB, via PubChem.

Common to all: target-level tests; species: HIV-1; target: Reverse transcriptase; read-out: inhibition

Blank or dashed fields: not listed here. Conditions beyond the fields shown may differ between rows. Inhibition is in % at the dose shown (toxicity tests: loss of growth or viability).

compound,strain or isolate,mutations,method,tested at,result
COC(=O)/C(=C/c1ccccc1OCc1ccccc1)CNCc1cn([C@H]2C[C@H](n3cc(C)c(=O)[nH]c3=O)O[C@@H]2CO)nn1,,,,10 µM,-18.4%
CC(C)(O/N=C(/C(=O)N[C@@H]1C(=O)N2C(C(=O)[O-])=C(C[n+]3ccccc3)CS[C@H]12)c1csc(N)n1)C(=O)O,,,radiometric,100 µg/mL,35%
CCOc1cccc(/C=C(\CNCc2cn([C@H]3C[C@H](n4cc(C)c(=O)[nH]c4=O)O[C@@H]3CO)nn2)C(=O)OC)c1OCc1ccccc1,,,,10 µM,22.5%
CC(C)Nc1cccnc1N(C)CCCCCCN(C)C(=O)c1cc2ccccc2[nH]1,,,nucleotide incorporation,100 µM,84.5%
O=C(CC(=O)Nc1ccc2ccccc2n1)Nc1ccc(Br)cn1,,,RT activity / absorbance,100 µM,80.22%
CC(C)Nc1cccnc1N(C)[C@H]1CCCC[C@@H]1N(C)C(=O)c1cc2ccccc2[nH]1,,,nucleotide incorporation,100 µM,0%
CCN1c2ncccc2-c2cscc2-c2cccnc21,,,nucleotide incorporation,1 µM,96%
Cc1ccnc(NC(=O)NCCc2ccccc2)n1,,,nucleotide incorporation,1 µg/mL,15%
CCN1c2ncccc2C(=O)Nc2c(C=O)cc(-c3cccc(OC)c3)nc21,RT,,,71 µM,1%
C=CCN1C(=O)c2ccnnc2Oc2ccc(OC)cc21,,,ELISA,33 µM,35%
C/C1=C\C=C\C2(C)C=C(CO)C(C)CC23OC([O-])C(C3=O)C(O)/C=C/C2(C)C=C(C=O)C(C)CC23OC([O-])C(C3=O)C(O)/C(C)=C/C=C/C2C=C(CO)C(C)CC23OC([O-])C(C3=O)C(O)/C=C/C2(C)C=C(C=O)C(C)CC23OC([O-])C(C3=O)C1O,IIIB,,RT activity,20 µg/mL,87.9%
COC(=O)c1cc(O)c(O)c(O)c1,,,ELISA,25 µM,33.4%
Cc1cccc2sc(NC(=O)NCCc3ccccc3)nc12,,,nucleotide incorporation,1 µg/mL,12%
O=C(CC(=O)Nc1ccc2ccccc2n1)Nc1ccccn1,,,RT activity / absorbance,100 µM,79.18%
CN1C(=O)c2ccnnc2N(C2CC2)c2ncccc21,,,ELISA,33 µM,37%
NOCc1c(F)cccc1Cl,,,nucleotide incorporation,100 µg/mL,2%
CCN1c2ncccc2C(=O)Nc2c(COCc3ccccc3)cc(OC)nc21,WT,,,42 µM,1%
CC(=O)OC(C)CCCCC[C@H]1CCCCCC[C@@H](C)NC(N)=[NH+]1.F[B-](F)(F)F,,,RT activity / radiometric,40 µM,0.6%
O=C(NCCc1ccccc1)Nc1ccccc1,,,nucleotide incorporation,10 µg/mL,16%
CC(CCCCC[C@H]1CCCCCC[C@@H](C)NC(N)=[NH+]1)O[Si](c1ccccc1)(c1ccccc1)C(C)(C)C.F[B-](F)(F)F,,,RT activity / radiometric,40 µM,77.6%
Nc1ncnc2c1ncn2[C@@H](C=O)O[C@@H](C=O)COP(=O)(O)OP(=O)(O)OP(=O)(O)O,,,absorbance,10 µM,40%
O=C1Nc2ccccc2Oc2nnccc21,,,ELISA,330 µM,29%
CN1C(=O)c2ccnnc2N(C2CC2)c2ccccc21,,,ELISA,330 µM,72%
O=C(O)CCc1ccnc2c1NC(=O)c1cccnc1N2C1CC1,,RT-Y181C,,8 µM,1%
CCCCCC(=O)OCCCC[C@H]1CCCCCC[C@@H](C)NC(N)=[NH+]1,,,RT activity / radiometric,10 µM,2.2%
CCCCOC(=O)C(CNCc1cn([C@H]2C[C@H](n3cc(C)c(=O)[nH]c3=O)O[C@@H]2CO)nn1)C(O)c1cccc(OC)c1O,,,,10 µM,31.4%
CCCCCCCC(=O)OCCCC[C@H]1CCCCCC[C@@H](C)NC(N)=[NH+]1,,,RT activity / radiometric,10 µM,16.5%
O=C(CC(=O)Nc1ccc2ccccc2n1)Nc1cc(Br)ccn1,,,RT activity / absorbance,100 µM,82.64%
CC(C)Nc1cccnc1N(C)CC(C)(C)CN(C)C(=O)c1cc2ccccc2[nH]1,,,nucleotide incorporation,100 µM,29%
CC(C)(C)[Si](C)(C)OCCCC[C@H]1CCCCCC[C@@H](CCCCO[Si](C)(C)C(C)(C)C)[NH+]=C(N)N1.F[B-](F)(F)F,,,RT activity / radiometric,10 µM,0%
O=C(NCCc1ccccc1)Nc1cnccn1,,,nucleotide incorporation,1 µg/mL,27%
Nc1ncnc2c1ncn2C1OC(COP(=O)(O)OC2C(O)C(COP(=O)(O)OC3CC(CO)OC3n3cnc4c(N)ncnc43)OC2n2cnc3c(N)ncnc32)CC1O,IIIB,,,10 µM,16%
CCN1c2ncccc2C(=O)Nc2c(C3OCCCO3)cc(-c3cccc(OC)c3)nc21,,RT-Y181C,,7 µM,1%
Nc1ncnc2c1ncn2[C@@H]1O[C@H](COP(=O)([O-])O[C@@H]2C[C@@H](COP(=O)([O-])O)O[C@H]2n2cnc3c(N)ncnc32)[C@@H](O)[C@H]1OP(=O)([O-])OC[C@@H]1C[C@@H](O)[C@H](n2cnc3c(N)ncnc32)O1,IIIB,,,10 µM,21%
CCN(C(C)=O)c1cccnc1N1CCN(C(=O)c2cc3ccccc3[nH]2)CC1,,,nucleotide incorporation,100 µM,9%
COc1ccc2c(c1)N(C)C(=O)c1ccnnc1O2,,,ELISA,330 µM,39%
O=C(CC(=O)Nc1ncccc1[N+](=O)[O-])Nc1ccc2ccccc2n1,,,RT activity / absorbance,100 µM,90.23%
C=CCN1C(=O)c2ccnnc2Oc2c(C)cc(C)cc21,,,ELISA,330 µM,93%
COC(=O)/C(=C/c1cc(Cl)ccc1OCc1ccccc1)CNCc1cn([C@H]2C[C@H](n3cc(C)c(=O)[nH]c3=O)O[C@@H]2CO)nn1,,,,10 µM,2.2%
Nc1ncnc2c1ncn2C1OC(COP(=O)(O)OC2C(O)C(COP(=O)(O)OC3C(O)C(CO)OC3n3cnc4c(N)ncnc43)OC2n2cnc3c(N)ncnc32)CC1O,IIIB,,,10 µM,18%
CCN1c2ncc(CCc3ccccc3)cc2-c2nnsc2-c2cccnc21,,,nucleotide incorporation,1 µM,89%
CCN1c2ncccc2C(=O)Nc2c(CO)cc(=O)[nH]c21,WT,,,51 µM,1%
Nc1ncnc2c1ncn2[C@@H]1O[C@H](COP(=O)(O)O[C@@H]2[C@H](O)[C@@H](COP(=O)(O)O[C@@H]3[C@H](O)[C@@H](CO)O[C@H]3n3cnc4c(N)ncnc43)O[C@H]2n2cnc3c(N)ncnc32)[C@@H](O)[C@H]1O,IIIB,,,10 µM,12%
CCCC(=O)OCCCC[C@H]1CCCCCC[C@@H](C)NC(N)=[NH+]1,,,RT activity / radiometric,40 µM,8.6%
CC1(C)C(=O)CC[C@]2(C)C3=C(C[C@H](C4=CCOC4=O)C3)C(=O)C[C@@H]12,,,RT activity / fluorescence,200 µg/mL,58.4%
O=C(CC(=O)Nc1ccc2ccccc2n1)Nc1ccc(CCl)cn1,,,RT activity / absorbance,100 µM,85.39%
COc1cccc2[nH]c(C(=O)N3CCN(c4ncccc4NC(C)C)CC3)cc12,,,nucleotide incorporation,100 µM,61%
O=C(NCCc1ccccc1)Nc1nc(-c2ccc(Cl)cc2)cs1,,,nucleotide incorporation,10 µg/mL,1%
CCN1c2ncccc2C(=O)Nc2c(C=O)cc(=O)[nH]c21,,RT-Y181C,,6 µM,1%
CC(C)Nc1cccnc1N(C)CCOC(=O)c1cc2ccccc2[nH]1,,,nucleotide incorporation,100 µM,72%
CCN1c2ncccc2C(=O)Nc2c(CO)cc(OC)nc21,WT,,,89 µM,1%
N#Cc1ccc(NC(=O)CC(=O)Nc2ccc3ccccc3n2)nc1,,,RT activity / absorbance,100 µM,86.65%

6 of the rows above, restated:

compound	strain or isolate	mutations	method	tested at	result
CC1(C)C(=O)CC[C@]2(C)C3=C(C[C@H](C4=CCOC4=O)C3)C(=O)C[C@@H]12			RT activity / fluorescence	200 µg/mL	58.4%
CC(C)Nc1cccnc1N(C)CCCCCCN(C)C(=O)c1cc2ccccc2[nH]1			nucleotide incorporation	100 µM	84.5%
O=C(NCCc1ccccc1)Nc1cnccn1			nucleotide incorporation	1 µg/mL	27%
CCN1c2ncccc2C(=O)Nc2c(COCc3ccccc3)cc(OC)nc21	WT			42 µM	1%
CCCC(=O)OCCCC[C@H]1CCCCCC[C@@H](C)NC(N)=[NH+]1			RT activity / radiometric	40 µM	8.6%
Nc1ncnc2c1ncn2C1OC(COP(=O)(O)OC2C(O)C(COP(=O)(O)OC3C(O)C(CO)OC3n3cnc4c(N)ncnc43)OC2n2cnc3c(N)ncnc32)CC1O	IIIB			10 µM	18%